Measured values from several laboratories, pooled; numbers as filed in NIAID ChemDB.

Common to all: tests in culture; organism: Mycobacterium tuberculosis

Inhibition is in % at the dose shown (toxicity tests: loss of growth or viability).

structure	strain or isolate	measure	tested at	method	value
CCOC(=O)Nc1ccc([As](=O)(O)O)cc1	H37Rv	MIC	-	-	>100 µg/mL
CC1=N/C(=C\c2ccc(N)cc2)C(=O)N1Nc1nnc(NN2C(=O)/C(=C\c3ccc(N)cc3)N=C2C)c2ccccc12	H37Rv	inhibition	12.5 µg/mL	BACTEC	95%
CC(CNCC(c1ccccc1)c1ccccc1)N[C@H]1C[C@H]2CC[C@]1(C)C2(C)C	-	MIC	-	-	50 µM
Cc1ccc(C)n1-c1ccc(-c2ccc3ccccc3n2)cc1	H37Rv	MIC	-	-	>100 µg/mL
CCCCCCCCCCCNCCNC1CCC1	-	MIC	-	-	50 µM
COCCOCCOCCOCCOC(=O)CCn1cc(F)c(=O)[nH]c1=O	H37Rv	inhibition	6.25 µg/mL	resazurin	0%
COc1ccc(CCNCCNCC23CC4CC(CC(C4)C2)C3)cc1OC	-	MIC	-	-	6.25 µM
COc1ccc(CCNCCNC[C@]2(C)CCC[C@]3(C)c4ccc(C(C)C)cc4CC[C@@H]23)cc1OC	-	MIC	-	-	6.25 µM
CCOC(=O)Nc1cc2c(c(N)n1)N=C(CN(C)c1ccccc1)CN2	H37Rv	EC50	-	-	<12.5 µg/mL
CC1CN(C(=O)/C=C/C(=O)OC2CCCCC2)CCN1C(=O)/C=C/C(=O)OC1CCCCC1	INH-r	MIC	-	-	6.3 µg/mL
S=C=Nc1ccc(Br)c2ccccc12	H37Rv	MIC	-	-	>100 µg/mL
COC(=O)C1=C(C(=O)OC)P2(c3ccccc3)(c3ccccc3)S/C(=N\P(C)(C)=S)N2C1(c1ccccc1)c1ccccc1	H37Rv	MIC bound	-	BACTEC	>12.5 µg/mL
CCOC(=O)Nc1cc2nc(C)c(-c3cccc(N)c3)nc2c(N)n1	H37Rv	inhibition	12.5 µg/mL	-	7%
O=C(O)c1ccccc1C1OC(=O)c2ccccc21	H37Rv	MIC	-	-	>100 µg/mL
COc1ccc(C2Oc3ccc(Br)cc3C(=O)C2O)cc1	H37Rv	EC50	-	-	>12.5 µg/mL
Nc1cccc2c(Cl)nccc12	H37Rv	MIC	-	-	>100 µg/mL
COc1ccc(/C=C/C(=O)c2ccc([N+](=O)[O-])cc2)cc1	-	EC50	-	-	<12.5 µg/mL
C=CCN(CCNCCC(c1ccccc1)c1ccccc1)C1CCCCC1	-	MIC	-	-	25 µM
CN(c1ccccc1)S(=O)(=O)c1cccc([N+](=O)[O-])c1	H37Rv	MIC bound	-	resazurin	>6.25 µg/mL
O=C(Nc1ccc2[nH]c(=S)[nH]c2c1)c1cccc(S(=O)(=O)Nc2ccccc2)c1	H37Rv	MIC	-	-	>100 µg/mL
CC(NCCNCCc1ccccc1)C12CC3CC(CC(C3)C1)C2	-	MIC	-	-	50 µM
CC(=O)CCCCCCCCCCCCC(C)=O	H37Rv	MIC	-	-	>100 µg/mL
Nc1ccc(C(=O)/C=C/c2ccccc2)cc1	-	inhibition	12.5 µg/mL	-	5%
CCCC1CS(=O)(=O)CC(CCC)S1(=O)=O	H37Rv	MIC	-	-	>100 µg/mL
Cc1ccc(S(=O)(=O)NC(=O)NC2=NC(C)(C)N(c3ccc(Cl)c(Cl)c3)C(N)=N2)cc1	H37Rv	MIC bound	-	BACTEC	>12.5 µg/mL
CC[C@@H](CO)NCCN[C@@H](CC)CO	MDR15	MIC	-	broth dilution / resazurin	32 µg/mL
Cc1c2c(cc3c1[nH]c1ccccc13)C(c1ccc(F)cc1)=NCC2	H37Rv	MIC	-	resazurin	6.25 µg/mL
CC(CO)NCCN[C@@H]1C[C@@H]2C[C@H]([C@H]1C)C2(C)C	-	MIC	-	-	12.5 µM
Cc1cc[c]([Sn]([c]2ccc(C)cc2)([c]2ccc(C)cc2)[c]2ccc(C)cc2)cc1	H37Rv	MIC	-	-	>100 µg/mL
Cl.O=C(Cc1ccccc1)N/N=C(\CCN1CCCC1)CC(c1ccccc1)c1c(O)c2ccccc2oc1=O	H37Rv	MIC bound	-	BACTEC	>12.5 µg/mL
O=[N+]([O-])c1cccc2cccnc12	H37Rv	MIC	-	-	>100 µg/mL
C[n+]1c(-c2ccc(/C=N/NC(=O)c3cncc(C(=O)N/N=C/c4ccc(-c5cn6ccccc6[n+]5C)cc4)c3)cc2)cn2ccccc21.Cc1ccc(S(=O)(=O)[O-])cc1.Cc1ccc(S(=O)(=O)[O-])cc1	H37Rv	inhibition	12.5 µg/mL	BACTEC	36%
CCN(CC)Cc1cc(Br)ccc1O.Cl	H37Rv	MIC	-	-	>100 µg/mL
CO[C@H]1/C=C/O[C@@]2(C)Oc3c(C)c(O)c4c(=O)c(c5oc6cc(N7CCN(C(C)C)CC7)cc(=O)c6nc5c4c3=C2O)NC(=O)/C(C)=C\C=C\[C@H](C)[C@H](O)[C@@H](C)[C@@H](O)[C@@H](C)[C@H](OC(C)=O)[C@@H]1C	2912 (rifampin-sensitive)	MBC	-	-	0.025 µg/mL
O=C(Nc1ccc(C2=NCCN2)cc1)c1cccc(C(=O)Nc2ccc(C3=NCCN3)cc2)n1	H37Rv	MIC	-	BACTEC	>128 µg/mL
CC(C)c1ccc2c(c1)CC[C@H]1[C@](C)(CNCCNCc3ccccc3Sc3ccccc3CO)CCC[C@]21C	-	MIC	-	-	50 µM
CCOC(=O)Nc1cc(NC(C)C(=O)c2ccc(O)cc2)c([N+](=O)[O-])c(N)n1	H37Rv	EC50	-	-	>12.5 µg/mL
CCCCC(CC)CN1CN(CC(CC)CCCC)CC(C)(NCCNC[C@@H]2CC[C@H]3C[C@@H]2C3(C)C)C1	-	MIC	-	-	25 µM
NCCCCC(Nc1ccc([N+](=O)[O-])cc1[N+](=O)[O-])C(=O)O	H37Rv	MIC	-	-	>100 µg/mL
O=Nc1ccc(NO)c2ccccc12	H37Rv	inhibition	12.5 µg/mL	BACTEC	56%
CCCCC(CC)CN1CN(CC(CC)CCCC)CC(C)(NCCNC2CCCC(C)C2C)C1	-	MIC	-	-	50 µM
Cl.Nc1ccc(S(=O)(=O)CI)cc1	H37Rv	MIC	-	-	>100 µg/mL
O=C1OC(C(O)CO)C(O)=C1Nc1ccc(S(=O)(=O)c2ncc(NC3=C(O)C(C(O)CO)OC3=O)s2)cc1	H37Rv	MIC bound	-	BACTEC	>12.5 µg/mL
CCOC(=O)Nc1cc(NCCc2ccc(S(N)(=O)=O)cc2)c2ncc(C)nc2n1	H37Rv	EC50	-	-	>12.5 µg/mL
CC(CNCC(c1ccccc1)c1ccccc1)N[C@H]1C[C@H]2CC[C@]1(C)C2(C)C	-	MIC	-	-	50 µM
CCCCCC(C)NCCNCCc1ccc(Cl)cc1Cl	-	MIC	-	-	25 µM
CC(=O)c1ccc2oc3cc4nc(C)[nH]c4cc3c2c1	H37Rv	MIC	-	-	>100 µg/mL
COc1ccc(OC)c(CCNCCN[C@H]2C[C@H]3CC[C@]2(C)C3(C)C)c1	-	MIC	-	-	25 µM
CC1(C)C(=O)N(Br)C(=O)N1Br	H37Rv	MIC bound	-	BACTEC	>12.5 µg/mL
CCCCNC(=O)Oc1ccc(C2=Nc3c(cc(NC(=O)OCC)nc3N)N[C@H]2C)cc1	H37Rv	EC50	-	-	>12.5 µg/mL
CC(=O)O/N=C1/C=Cc2c(no[n+]2[O-])C1=O	H37Rv	MIC bound	-	resazurin	>6.25 µg/mL
CO[C@H]1/C=C/O[C@@]2(C)Oc3c(C)c(O)c4c(=O)c(c5oc6cc(N7CCN(CC(C)C)CC7)cc(=O)c6nc5c4c3=C2O)NC(=O)/C(C)=C\C=C\[C@H](C)[C@H](O)[C@@H](C)[C@@H](O)[C@@H](C)[C@H](OC(C)=O)[C@@H]1C	2983 (rifampin-sensitive)	MBC	-	-	0.006 µg/mL
OCc1ccc(Br)cc1	H37Rv	MIC	-	-	>100 µg/mL
Fc1ccccc1CCNCCNCC(c1ccccc1)c1ccccc1	-	MIC	-	-	50 µM
ClCCOc1ccccc1	H37Rv	MIC	-	-	>100 µg/mL
Nc1nc(SCc2ccccc2)sc1C(=O)N(Cc1ccccc1)Cc1ccccc1	H37Rv	MIC bound	-	resazurin	>6.25 µg/mL
CCOC(=O)c1cc(-c2ccccc2)nc2ccc(OC)cc12	H37Rv	MIC	-	-	>100 µg/mL
CCCCC(CC)CN1CN(CC(CC)CCCC)CC(C)(NCCNCCc2ccccc2Cl)C1	-	MIC	-	-	12.5 µM
O=C1N(Cl)C(=O)C(c2ccccc2)(c2ccccc2)N1Cl	H37Rv	MIC bound	-	BACTEC	>12.5 µg/mL
Cc1ccccc1N	H37Rv	MIC	-	-	100 µg/mL
O=C(c1ccc([N+](=O)[O-])cc1[N+](=O)[O-])N(N=CC=Cc1ccccc1)c1nnc(-c2ccccc2)c(-c2ccccc2)n1	H37Rv	MIC bound	-	BACTEC	≤12.5 µg/mL
CC1(C)CC2CC(C)(CN2CCNCC23CC4CC(CC(C4)C2)C3)C1	-	MIC	-	-	9.4 µM
O=C(NN(C(=O)c1ccccc1)c1cccs1)c1ccccc1	H37Rv	MIC bound	-	BACTEC	>12.5 µg/mL
CCOC(=O)c1cc(=O)n(C)c2ccc(OC)cc12	H37Rv	MIC	-	-	100 µg/mL
COC(=O)C(=O)c1c(-c2ccc(O)c(OC)c2)[nH]c2[nH]n(-c3ccccc3)c(=O)c2c1=O	H37Rv	inhibition	12.5 µg/mL	BACTEC	26%
CC(=O)c1ccc(NCc2ccccc2O)cc1	H37Rv	MIC	-	-	25 µg/mL
CC(=O)NS(=O)(=O)c1ccc(NC(=O)COC(=O)c2cccc3c(=O)c4ccccc4[nH]c23)cc1	H37Rv	inhibition	12.5 µg/mL	BACTEC	0%
COc1ccc(C2CC(=O)c3c(OC)cc(OC)cc3O2)cc1	H37Rv	inhibition	12.5 µg/mL	-	12%

Repeating the final 6 entries:

structure,strain or isolate,measure,tested at,method,value
O=C(NN(C(=O)c1ccccc1)c1cccs1)c1ccccc1,H37Rv,MIC bound,-,BACTEC,>12.5 µg/mL
CCOC(=O)c1cc(=O)n(C)c2ccc(OC)cc12,H37Rv,MIC,-,-,100 µg/mL
COC(=O)C(=O)c1c(-c2ccc(O)c(OC)c2)[nH]c2[nH]n(-c3ccccc3)c(=O)c2c1=O,H37Rv,inhibition,12.5 µg/mL,BACTEC,26%
CC(=O)c1ccc(NCc2ccccc2O)cc1,H37Rv,MIC,-,-,25 µg/mL
CC(=O)NS(=O)(=O)c1ccc(NC(=O)COC(=O)c2cccc3c(=O)c4ccccc4[nH]c23)cc1,H37Rv,inhibition,12.5 µg/mL,BACTEC,0%
COc1ccc(C2CC(=O)c3c(OC)cc(OC)cc3O2)cc1,H37Rv,inhibition,12.5 µg/mL,-,12%

Lines come from different laboratories, so protocols vary. Blank or dashed fields: not listed here. MIC bound: limit read from a one-dose screen. ECn: concentration that inhibits the pathogen or its effect by n%.